Test system: human PBMCs
Assay: SEA-stimulated human T cell activation in PBMC (IL-2 ELISA)
Type: cell-based
Conditions: PBMCs from one healthy donor, SEA 50 ng/mL, 4 days

B1: TY22404: activatable anti-CTLA4 fully human IgG1 antibody prodrug (SAFEbody); heavy chain SEQ ID NO:320, masked light chain SEQ ID NO:322 (antibody)
heavy: EVQLVESGGGLVQPGGSLRLSCAASGYSISSGYHWSWIRQAPGKGLEWLARIDWDDDKYYSTSLKSRLTISRDNSKNTLYLQLNSLRAEDTAVYYCARSYVYFDYWGQGTLVTVSSASTKGPSVFPLAPSSKSTSGGTAALGCLVKDYFPEPVTVSWNSGALTSGVHTFPAVLQSSGLYSLSSVVTVPSSSLGTQTYICNVNHKPSNTKVDKKV[gap - human IgG1 Fc]
light: EVGSYPNPSSDCVPYYYACAYSGRSAGGGGTPLGLAGSGGSDIQLTQSPSSLSASVGDRVTITCRASQSVRGRFLAWYQQKPGKAPKLLIYDASNRATGIPSRFSGSGSGTDFTLTISSLQPEDFATYYCQQSSSWPPTFGQGTKVEIKRTVAAPSVFIFPPSDEQLKSGTASVVCLLNNFYPREAKVQWKVDNALQSGNSQESVTEQDSKDSTYSLSSTLTLSKADYEKHKVYACEVTHQGLSSPVTKSFNRGEC
SEA peptide-stimulated IL-2 cytokine release: no such activity

Source: patent US20240209092A1, “COMBINATION THERAPIES FOR TREATING CANCER” (ADAGENE INC., priority 2021, published 2024)
